Source: patent publication US7910549

Molecular target: monoclonal antibody M75 (MAb M75), secreted by hybridoma VU-M75, ATCC HB 11128
Experiment: competition ELISA (competitor against immobilized GST-MN for M75)

For “complete MN/CA IX protein (MN/CA IX+), from Vero cells infected with vaccinia virus carrying the complete coding region of MN/CA IX (from UniProt Q16790 38-459) (enzyme)”, which fold more active than the smallest serologically active peptide (molar concentration) is on record?
Its fold more active than the smallest serologically active peptide (molar concentration) is 1.5e+08 fold.

And the fold more active than the smallest serologically active peptide (weight/volume concentration)?
Its fold more active than the smallest serologically active peptide (weight/volume concentration) is 100000 fold.
